A mixed list of measured activities; the numbers were collected in NIAID ChemDB.

Shared fields: tests in culture; organism: Mycobacterium tuberculosis

Inhibition is in % at the dose shown (toxicity tests: loss of growth or viability).

structure,method,measure,strain or isolate,tested at,setting,mutations,value
C[C@@]12CCC[C@@](C)(C(=O)O)[C@H]1CC[C@]13CC(=O)[C@@H](CC[C@H]12)C3,resazurin,MIC,,,,,100 µg/mL
Fc1cnccc1-c1nnc2sc(COc3ccccc3)nn12,,MIC,Clinical isolate MDRTB,,,Isoniazid- and rifampin-resistant,2 µg/mL
O=C(NNC1OC[C@H](O)[C@@H](O)[C@H]1O)c1ccncc1,,MIC90,H37Rv (ATCC 27294),,,,0.31 µg/mL
CO[C@H]1/C=C/O[C@@]2(C)Oc3c(C)c(O)c4c(O)c(c5c(c4c3C2=O)N[C@]2(CCCN(C)CC2)N=5)=NC(=O)/C(C)=C\C=C\[C@H](C)[C@H](O)[C@@H](C)[C@@H](O)[C@@H](C)[C@H](OC(C)=O)[C@@H]1C,GFP,MIC90,,,,,10 µg/mL
O=C(NN1C(=O)C(Cl)C1c1ccccc1Cl)c1ccccc1-c1nc2ccccc2[nH]1,,inhibition,H37Rv,0.031 µg/mL,,,32%
O=C(O)c1ccccc1Nc1cccc2c1C(=O)c1cccc(Nc3ccccc3C(=O)O)c1C2=O,BACTEC,MIC bound,H37Rv,,,,>12.5 µg/mL
CCCNC(=O)Nc1ccc(S(=O)(=O)Nc2cc(C)on2)cc1,broth dilution / absorbance,MIC100,H37Rv,,21 d,,>1000 µM
O=C(NN1C(=O)C(Cl)C1c1ccc(Cl)cc1Cl)c1ccccc1-c1nc2ccccc2[nH]1,,EC50,H37Rv,,,,<0.031 µg/mL
CNC(=O)Nc1ccc(S(=O)(=O)Nc2cc(C)on2)cc1,broth dilution / absorbance,MIC100,H37Rv,,21 d,,32 µM
O=[N+]([O-])c1cn2c(n1)OC[C@@H](OCc1ccc(Oc3ccc(F)cc3)cn1)C2,resazurin,MIC90,,,,,0.09 µM
CCCN1C2CCC1CC1(C2)N=C2C(=C3NC(=O)/C(C)=C\C=C\[C@H](C)[C@H](O)[C@@H](C)[C@@H](O)[C@@H](C)[C@H](OC(C)=O)[C@H](C)[C@@H](OC)/C=C/O[C@@]4(C)OC5=C(C)C(O)C(C3=O)C2=C5C4=O)N1,GFP,MIC90,,,,,10 µg/mL
O=C(N/N=C/c1ccc([N+](=O)[O-])o1)N1CCCCC1,,MIC,,,,,100 µg/mL
Clc1ccc(NCc2cc3ccccc3nc2Cl)cc1Cl,,MIC,H37Ra,,,,>400 µg/mL
CC(=O)N(N=O)c1cc(Cl)ccc1Cl,BACTEC,inhibition,H37Rv,12.5 µg/mL,,,12%
N#Cc1nc2cc(Cl)ccc2nc1N,,EC50,H37Rv,,,,>12.5 µg/mL
COC(=O)c1cnc2ccccc2c1,,inhibition,H37Rv,6.25 µg/mL,,,0%
Fc1ccc(NC(=S)SCc2ccc(Cl)c(Cl)c2)cc1,BACTEC,MIC,H37Rv,,,,64 µg/mL
CCCCCCCNC(=O)Nc1ccc(S(=O)(=O)Nc2cc(C)on2)cc1,broth dilution / absorbance,MIC100,H37Rv,,21 d,,500 µM
O=c1c2ccccc2c2nccn2c2ccccc12,resazurin,inhibition,H37Rv,6.25 µg/mL,,,1%
CN(C)c1ccc(/C=N/NC(=O)c2ccccc2-c2nc3ccccc3[nH]2)cc1,,EC50,H37Rv,,,,>0.031 µg/mL
O=[N+]([O-])c1ccc(/C=N/NC(=S)N2CCOCC2)o1,,MIC,,,,,100 µg/mL
Fc1ccc(OCc2nn3c(-c4ccc(Cl)cc4)nnc3s2)cc1,,MIC,Clinical isolate MDRTB,,,Isoniazid- and rifampin-resistant,8 µg/mL
CCCCCCCCCCNC(=O)Nc1ccc(S(=O)(=O)Nc2cc(C)on2)cc1,broth dilution / absorbance,MIC100,H37Rv,,14 d,,125 µM
CN(C)c1ccc(C2C(Cl)C(=O)N2NC(=O)c2ccccc2-c2nc3ccccc3[nH]2)cc1,,EC50,H37Rv,,,,>0.031 µg/mL
S=C(S)NCCN1CCNCC1,BACTEC,MIC,H37Rv,,,,≥12.5 µg/mL
COc1cc(/C=C/C(=O)NNC(=O)c2ccncc2O)cc(OC)c1O,resazurin,MIC,H37Rv,,,,26.8 µM
COc1cc([C@H]2c3cc(O)c(OC)cc3C[C@@H]3C(=O)OC[C@H]23)ccc1O,BACTEC,MIC bound,H37Rv,,,,>12.5 µg/mL
N#Cc1nc2cc(C(F)(F)F)ccc2nc1N,,MIC,H37Rv,,,,>12.5 µg/mL
CC1=CC(=O)[C@@H](O)[C@]2(C)[C@H]3C4(O)OC[C@]35[C@H]([C@@H](C)[C@H]4O)[C@@H](O)C(=O)O[C@@H]5C[C@@H]12,BACTEC,inhibition,H37Rv,12.8 µg/mL,,,3%
C/C(=C\C(=O)O)CC[C@@H]1[C@@]2(CC[C@@H]3C(C)(C)CCC[C@]31C)CO2,resazurin,MIC,,,,,25 µg/mL
O=C(O)c1ccc2ccccc2n1,,inhibition,H37Rv,6.25 µg/mL,,,10%
CCCN=c1cc2n(-c3ccc(Cl)cc3)c3ccccc3nc-2cc1Nc1ccc(Cl)cc1,,MIC,H37Rv,,,,0.5 µg/mL
CC(=O)OC1OC(=O)C=C1[C@H]1CC=C(CC/C=C(\C)CCC2=C(C)CCCC2(C)C)C(O)C1,,MIC,H37Ra,,,,7 µM
Clc1ccc(OCc2nn3c(-c4ccc(Br)cc4)nnc3s2)c(Cl)c1,,MIC,Clinical isolate MDRTB,,,Isoniazid- and rifampin-resistant,16 µg/mL
COC(=O)c1cc(C2CCCCC2)nc2c(C3CCCCC3)cccc12,,MIC,H37Rv,,,,>6.25 µg/mL
O=C(NN1C(=O)C(Cl)C1c1ccccc1)c1ccccc1-c1nc2ccccc2[nH]1,,EC50,H37Rv,,,,<0.031 µg/mL
Cc1cc(NS(=O)(=O)c2ccc(NC(=O)C(=O)Nc3ccc(S(=O)(=O)Nc4cc(C)on4)cc3)cc2)no1,broth dilution / absorbance,MIC100,H37Rv,,21 d,,4 µM
O=C(/C=C/c1cccc(F)c1)NNC(=O)c1ccncc1,resazurin,MIC,H37Rv,,,,72.6 µM
CCCCCNC(=O)Nc1ccc(S(=O)(=O)Nc2cc(C)on2)cc1,broth dilution / absorbance,MIC100,H37Rv,,21 d,,500 µM
Cc1cccc(C(N)=Nc2nc(-c3ccccn3)cc3ccccc23)c1,,MIC,,,,,1 µg/mL
COC(=O)C1CC23CC45CC6C(C)CN(CC7CC(OC(C)=O)(CC8=C2C1CC8)CC73C4OC(C)=O)C65O,BACTEC,MIC bound,H37Rv,,,,>12.5 µg/mL
COc1ccccc1-n1cc(C(F)F)nn1,,MIC,H37Rv,,,,40 µg/mL
Fc1ccc(OCc2nn3c(-c4ccc(Br)cc4)nnc3s2)cc1,,MIC,Clinical isolate MDRTB,,,Isoniazid- and rifampin-resistant,8 µg/mL
Fc1ccc(NCc2cc3ccccc3nc2Cl)cc1,,MIC,H37Ra,,,,>400 µg/mL
COC(=O)c1cc(C2CCCC2)c2c(C3CCCC3)cccc2n1,,inhibition,H37Rv,6.25 µg/mL,,,99%
COC(=O)C(C(=O)C(=O)Nc1ccc(C(F)(F)F)cc1[N+](=O)[O-])c1csc(-n2nc(-c3ccccc3)cc2-c2ccccc2)n1,resazurin,MIC bound,H37Rv,,,,>6.25 µg/mL
CCCN(CCC)C(=S)N/N=C/c1ccc([N+](=O)[O-])o1,,MIC,,,,,100 µg/mL
Fc1ccc(-c2nnc3sc(COc4ccc5ccccc5c4)nn23)cc1,,MIC,Clinical isolate MDRTB,,,Isoniazid- and rifampin-resistant,4 µg/mL
CO[C@H]1/C=C/O[C@@]2(C)Oc3c(C)c(O)c4c(O)c(c5c(c4c3C2=O)NC2(CCN(CC(C)C)CC2)N=5)=NC(=O)/C(C)=C\C=C\[C@H](C)[C@H](O)[C@@H](C)[C@@H](O)[C@@H](C)[C@H](OC(C)=O)[C@@H]1C,GFP,MIC90,,,,,3.5 µg/mL
CC(C)(C)NC(=O)[C@@H]1CN(Cc2cccnc2)CCN1C[C@@H](O)C[C@@H](Cc1ccccc1)C(=O)N[C@H]1c2ccccc2C[C@H]1O,resazurin,MIC bound,H37Rv,,,,>6.25 µg/mL
COC(=O)c1ccc2ccccc2n1,,MIC,H37Rv,,,,>6.25 µg/mL
COc1ccc(C2C(Cl)C(=O)N2NC(=O)c2ccccc2-c2nc3ccccc3[nH]2)cc1,,inhibition,H37Rv,0.031 µg/mL,,,52%
O=C(NNC1OC[C@@H](O)[C@H](O)[C@@H]1O)c1ccncc1,,MIC90,H37Rv (ATCC 27294),,,,>100 µg/mL
COc1ccc(/C=N/NC(=O)c2ccccc2-c2nc3ccccc3[nH]2)cc1,,inhibition,H37Rv,0.031 µg/mL,,,46%
CO[C@H]1/C=C/O[C@@]2(C)Oc3c(C)c(O)c4c(O)c(c5c(c4c3C2=O)N[C@]2(CC[C@@H]3CC[C@H](C2)N3C)N=5)=NC(=O)/C(C)=C\C=C\[C@H](C)[C@H](O)[C@@H](C)[C@@H](O)[C@@H](C)[C@H](OC(C)=O)[C@@H]1C,GFP,MIC90,,,,,10 µg/mL
O=C(NNC1O[C@@H](CO)[C@H](O)[C@H](O)[C@@H]1O)c1ccncc1,,MIC90,H37Rv (ATCC 27294),,,,0.62 µg/mL
CCCOC(=O)CSc1nnc(-c2ccc([N+](=O)[O-])s2)s1,resazurin,inhibition,H37Rv,6.25 µg/mL,,,100%
CNC(=S)N(Cc1cc2ccccc2nc1Cl)c1ccc(Cl)cc1,,MIC,H37Ra,,,,100 µg/mL
CCOC(=O)Cc1cc(C2C3CC4CC(C3)CC2C4)nc2ccccc12,,inhibition,H37Rv,6.25 µg/mL,,,47%
CS(=O)CC1=NC(=N)N=C1CS(C)=O,BACTEC,MIC bound,H37Rv,,,,>12.5 µg/mL
O=[N+]([O-])c1cn2c(n1)OC[C@@H](OCc1ccc(Oc3ccc(OC(F)(F)F)cc3)cn1)C2,low oxygen,MIC90,,,,,0.87 µM
Nc1nc(NCCCc2ccccc2)c(N)c(=O)[nH]1,BACTEC,MIC bound,H37Rv,,,,>12.5 µg/mL
O=C(NNC1OC[C@H](O)[C@H](O)[C@@H]1O)c1ccncc1,,MIC90,H37Rv (ATCC 27294),,,,3.12 µg/mL
COc1ccc(N(Cc2cc3ccccc3nc2Cl)C(N)=S)cc1,,MIC,H37Ra,,,,>400 µg/mL
CCCCOC(=O)CSc1nnc(-c2ccc([N+](=O)[O-])s2)s1,resazurin,MIC,H37Rv,,,,0.78 µg/mL
CC(=O)N[C@@H]1C(NNC(=O)c2ccncc2)O[C@@H](CO)[C@@H](O)[C@@H]1O,,MIC90,H37Rv (ATCC 27294),,,,>100 µg/mL
CN(CCN(C)C(=O)CCn1cc(F)c(=O)[nH]c1=O)C(=O)CCn1cc(F)c(=O)[nH]c1=O,resazurin,MIC bound,H37Rv,,,,>6.25 µg/mL
Clc1ccc(-c2nnc3sc(COc4ccc5ccccc5c4)nn23)cc1,,MIC,Clinical isolate MDRTB,,,Isoniazid- and rifampin-resistant,8 µg/mL
Clc1ccc(Nc2cc3nc4ccccc4n(-c4ccc(Cl)cc4)c-3cc2=NC2CCCCC2)cc1,,MIC,H37Rv,,,,0.5 µg/mL
CNNC1=NS(=O)(=O)c2cc(C#N)c(Cl)cc2S1,resazurin,inhibition,H37Rv,6.25 µg/mL,,,-22%
O=[N+]([O-])c1cn2c(n1)OC[C@@H](OCc1ccc(C#Cc3ccc(F)cc3)cn1)C2,resazurin,MIC90,,,,,0.05 µM
CCOC(=O)c1cc(=O)c2cc(CC)c(OCc3ccccc3)cc2o1,BACTEC,MIC,H37Rv,,,,12.5 µg/mL
CCc1cc(C(N)=S)ccn1,,MIC,H37Ra,,,,3.12 µg/mL
NC(=S)NNC(=S)S,,MIC,CS-R,,,,12.5 µg/mL
O=[N+]([O-])c1cn2c(n1)OC[C@@H](OCc1ccc(Oc3ccc(C(F)(F)F)cc3)cc1)C2,resazurin,MIC90,,,,,0.04 µM
CCN(CC)C(=S)SSC(=S)N(CC)CC,BACTEC,MIC,H37Rv,,,,1 µg/mL
Clc1ccc(N=c2cc3n(-c4ccc(Cl)cc4)c4ccccc4nc-3cc2Nc2ccc(Cl)cc2)cc1,,MIC,H37Rv,,,,2.5 µg/mL
Cc1ccc(NCCNCC(O)CO)c2c(=O)c3ccccc3sc12,BACTEC,MIC bound,H37Rv,,,,≤12.5 µg/mL
NNC(=O)c1ccncc1,resazurin,MIC,H37Rv,,,,22.3 µM
C[C@@]12CCC[C@@](C)(C(=O)O)[C@H]1CC[C@]13CC(=O)O[C@@H](CC[C@H]12)C3,resazurin,MIC,,,,,200 µg/mL
C[C@@H]1CC[C@H](C(C)(C)O)CC2=C1CC[C@H]2C,BACTEC,inhibition,H37Rv,128 µg/mL,,,80%
O=[N+]([O-])c1ccc(/C=N/NC(=S)N2CCCC2)o1,,MIC,,,,,100 µg/mL

A second listing of 10 rows from above:

structure,method,measure,strain or isolate,tested at,setting,mutations,value
O=[N+]([O-])c1ccc(/C=N/NC(=S)N2CCCC2)o1,,MIC,,,,,100 µg/mL
C[C@@]12CCC[C@@](C)(C(=O)O)[C@H]1CC[C@]13CC(=O)O[C@@H](CC[C@H]12)C3,resazurin,MIC,,,,,200 µg/mL
CCOC(=O)c1cc(=O)c2cc(CC)c(OCc3ccccc3)cc2o1,BACTEC,MIC,H37Rv,,,,12.5 µg/mL
Clc1ccc(Nc2cc3nc4ccccc4n(-c4ccc(Cl)cc4)c-3cc2=NC2CCCCC2)cc1,,MIC,H37Rv,,,,0.5 µg/mL
Fc1cnccc1-c1nnc2sc(COc3ccccc3)nn12,,MIC,Clinical isolate MDRTB,,,Isoniazid- and rifampin-resistant,2 µg/mL
COc1cc(/C=C/C(=O)NNC(=O)c2ccncc2O)cc(OC)c1O,resazurin,MIC,H37Rv,,,,26.8 µM
O=[N+]([O-])c1cn2c(n1)OC[C@@H](OCc1ccc(Oc3ccc(OC(F)(F)F)cc3)cn1)C2,low oxygen,MIC90,,,,,0.87 µM
CCCN(CCC)C(=S)N/N=C/c1ccc([N+](=O)[O-])o1,,MIC,,,,,100 µg/mL
COc1ccc(/C=N/NC(=O)c2ccccc2-c2nc3ccccc3[nH]2)cc1,,inhibition,H37Rv,0.031 µg/mL,,,46%
O=C(O)c1ccccc1Nc1cccc2c1C(=O)c1cccc(Nc3ccccc3C(=O)O)c1C2=O,BACTEC,MIC bound,H37Rv,,,,>12.5 µg/mL

An empty or dashed field is not shown. Conditions beyond the fields shown may differ between rows. MIC bound: limit read from a one-dose screen. ECn is the concentration giving n% inhibition of infection, replication or growth. A number after MIC or MFC names an inhibition level or a share of isolates.